Results of unrelated studies side by side (data: NIAID ChemDB).

Blank or dashed fields: not listed here. A number after MIC or MFC names an inhibition level or a share of isolates. ICn is the concentration giving n% inhibition. Lines come from different laboratories, so protocols vary. Percent inhibition refers to the dose given; in toxicity tests it is the harm to the cells. Fold resistance: result on the changed form divided by that on wild type. ECn is the concentration giving n% inhibition of infection, replication or growth.

smiles,agent,read-out,mutations,read by,kind,strain or isolate,tested at,cell line,protein,value
C=CCN(C(=O)OCc1ccc([N+](=O)[O-])cc1)C1CCN(CC[C@](C)(CN(C)S(=O)(=O)c2ccccc2)c2ccccc2)CC1,-,fold resistance,CCR5-Y251A,radiometric,target,-,-,-,CCR5,10.59
NS(=O)(=O)c1ccc(CNc2nnc(NC(=O)c3ccc(C(F)(F)F)cc3)s2)cc1,Human cytomegalovirus,IC50,-,-,target,-,-,-,Polymerase,>25 µM
CCCCC1=Nc2c(cc(NC(=O)OCC)nc2N)NC1C,Encephalitozoon intestinalis,inhibition,-,-,culture,-,0.1 µg/mL,RK-13,-,64.9%
Cc1cn([C@H]2C=C[C@@H](COP(=O)(O)OP(=O)(O)OP(=O)(O)O)O2)c(=O)[nH]c1=O,HIV,fold resistance,RT-N137Y,nucleotide incorporation / radiometric,target,-,-,-,Reverse transcriptase,13.7
CC(C)=CCN1c2cc(Cl)cc3[nH]c(=S)n(c23)C[C@@H]1C,HIV-1,EC95,RT-D67N K70R T215Y K219Q Y181C,-,culture,-,-,MT-4,-,>3 µM
COc1cc(OC)cc(N(C)Cc2cnc3nc(N)nc(N)c3c2C)c1,Encephalitozoon intestinalis,inhibition,-,-,culture,-,1 µg/mL,RK-13,-,72.5%
COc1cc(C[C@H](C)[C@H](C)Cc2ccc(O)c(O)c2)ccc1O,Candida albicans,MIC80,-,broth dilution,culture,CCC 126-2000,-,-,-,31.25 µg/mL
NS(=O)(=O)c1ccc(CCNc2nnc(NC(=O)/C=C/c3ccccc3Cl)s2)cc1,Human cytomegalovirus,IC50,-,-,target,-,-,-,Polymerase,<25 µM
Cc1cn([C@@H]2O[C@H](CO[Si](C)(C)C(C)(C)C)C3(OS(=O)(=O)C=C3N)[C@H]2O[Si](C)(C)C(C)(C)C)c(=O)n(C)c1=O,HIV,IC50,RT-N137H,nucleotide incorporation / radiometric,target,-,-,-,Reverse transcriptase,1 µM
C#CC[C@@H](C(=O)N[C@H](/C=C/C(=O)OCC)C[C@@H]1CCNC1=O)n1cccc(NC(=O)c2cc(C)on2)c1=O,Rhinovirus,inhibition,-,cytopathic effect / XTT,culture,Serotype 95,0.108 µM,H1-HELA,-,90%
O=C(CCCCCl)Nc1nnc(NCCCCc2ccccc2)s1,Human cytomegalovirus,IC50,-,-,target,-,-,-,Polymerase,>25 µM
CCO/N=C/c1ccc(OCCC2CCN(c3ccc(C)nn3)CC2)cc1,Rhinovirus,EC50,-,neutral red,culture,FO 1-3772 (ICAM-1 receptor group 52),-,KB,-,0.011 µM
CCOc1ccc(OCC)c(NCc2cnc3nc(N)nc(N)c3c2C)c1,Encephalitozoon intestinalis,inhibition,-,-,culture,-,0.1 µg/mL,RK-13,-,6%
O=C(Nc1nnc(NC2CCCCCC2)s1)c1ccc(Cl)c(Cl)c1,Human cytomegalovirus,IC50,-,-,target,-,-,-,Polymerase,>25 µM
CCN(C(=O)OCc1ccccc1)C1CCN(CC[C@](C)(CN(C)S(=O)(=O)c2ccccc2)c2ccccc2)CC1,-,fold resistance,CCR5-Y251A,radiometric,target,-,-,-,CCR5,27.5
CCOC(=O)Nc1cc(NC/C(=N/O)c2ccc(Cl)cc2Cl)c([N+](=O)[O-])c(N)n1,Encephalitozoon intestinalis,inhibition,-,-,culture,-,0.01 µg/mL,RK-13,-,6.5%
Nc1nc2c(ncn2[C@H]2CC[C@@H](COP(=O)(O)OP(=O)(O)OP(=O)(O)O)O2)c(=O)[nH]1,HIV,fold resistance,RT-N137T,nucleotide incorporation / radiometric,target,-,-,-,Reverse transcriptase,44
CO[C@@H]1[C@H](OC(=O)NC(=O)CCl)CC[C@]2(CO2)[C@H]1[C@@]1(C)O[C@@H]1CC=C(C)C,Vittaforma corneae,inhibition,-,-,culture,-,0.0001 µg/mL,RK-13,-,35.8%
O=C(/C=C/c1ccccc1Cl)Nc1nnc(NCC(c2ccccc2)c2ccccc2)s1,Human cytomegalovirus,IC50,-,-,target,-,-,-,Polymerase,<25 µM
CCOC(=O)Nc1cc(NC(C)/C(=N/O)c2cccc([N+](=O)[O-])c2)c([N+](=O)[O-])c(N)n1,Encephalitozoon intestinalis,inhibition,-,-,culture,-,0.01 µg/mL,RK-13,-,0%
CCCCCCCC/C=C/CCCCCCCC(=O)Nc1nnc(NCCNC(C)=O)s1,Human cytomegalovirus,IC50,-,-,target,-,-,-,Polymerase,<25 µM
O=C(Nc1ncc([N+](=O)[O-])s1)c1ccccc1O,Vittaforma corneae,inhibition,-,-,culture,-,1 µg/mL,RK-13,-,66.1%
O=C(c1ccccc1Cl)N1C[C@H](CN2CCC(O)(CCCc3ccc(-c4nn[nH]n4)cc3)CC2)[C@@H](c2ccccc2)C1,-,IC50,CCR5-W86A,radiometric,target,-,-,-,CCR5,0.12 µM
O=C(Nc1nnc(NCCc2c[nH]c3ccccc23)s1)c1cc2ccccc2s1,Human cytomegalovirus,IC50,-,-,target,-,-,-,Polymerase,>25 µM
COc1ccc2cc3[n+](cc2c1OC)CCc1cc2c(cc1-3)OCO2,Vittaforma corneae,inhibition,-,-,culture,-,10 µg/mL,RK-13,-,63.1%

2 of the rows above, restated:

smiles	agent	read-out	mutations	read by	kind	strain or isolate	tested at	cell line	protein	value
CCO/N=C/c1ccc(OCCC2CCN(c3ccc(C)nn3)CC2)cc1	Rhinovirus	EC50	-	neutral red	culture	FO 1-3772 (ICAM-1 receptor group 52)	-	KB	-	0.011 µM
NS(=O)(=O)c1ccc(CNc2nnc(NC(=O)c3ccc(C(F)(F)F)cc3)s2)cc1	Human cytomegalovirus	IC50	-	-	target	-	-	-	Polymerase	>25 µM